Molecular target: VpTLH (Vibrio parahaemolyticus, UniProt Q99289)
Experiment: p-nitrophenyl laurate hydrolysis, […] nm
Conditions: 200 µM PNPL, 0.0001% egg yolk lecithin, 50 mM Tris-HCl pH 7.5, 37 °C, 6.2 µM enzyme

Chains of the proteins cited; added tags and fusions are not shown. Lines headed by an entry give the natural chain unless they say otherwise; changes in a name come on top.
UniProt Q99289: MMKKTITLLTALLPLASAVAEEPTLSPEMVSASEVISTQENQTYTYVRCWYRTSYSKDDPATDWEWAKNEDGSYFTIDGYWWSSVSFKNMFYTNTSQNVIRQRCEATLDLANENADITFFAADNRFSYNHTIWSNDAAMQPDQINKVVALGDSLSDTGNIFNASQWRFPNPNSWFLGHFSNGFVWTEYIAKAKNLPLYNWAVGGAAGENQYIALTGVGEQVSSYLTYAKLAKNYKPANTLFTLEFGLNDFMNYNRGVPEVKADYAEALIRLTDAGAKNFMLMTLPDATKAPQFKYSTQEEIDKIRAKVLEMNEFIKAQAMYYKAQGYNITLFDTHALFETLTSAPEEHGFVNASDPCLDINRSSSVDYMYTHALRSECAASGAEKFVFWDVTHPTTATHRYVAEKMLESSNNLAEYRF

Row | Structure (SMILES) | % inhibition at 30 μM [%]
1 | O=C(O)c1cc(O)c(O)c(O)c1 | 20
2 | O=C(O)c1ccc(O)c(O)c1 | 20
3 | COc1cc(C(=O)O)ccc1O | 20
